Pooled drug test results. Numbers come from NIAID ChemDB, via PubChem.

All rows: tests in culture; organism: HIV-1

Lines come from different laboratories, so protocols vary. ECn: concentration that inhibits the pathogen or its effect by n%. Blank or dashed fields: not listed here.

structure | mutations | method | cell line | read-out | strain or isolate | setting | result
CC(C)C[C@@H]1[C@H](O)[C@@H](O)[C@@H](CC(C)C)N(CC2CC2)C(=O)N1CC1CC1 | - | hybridisation | MT-2 | EC90 | RF | - | >10 µM
Cc1cc(S(=O)(=O)Nc2n[nH]c(Nc3ccccc3)n2)c(SCC(=O)O)cc1Cl | - | cytopathic effect / XTT | CEM | EC50 | RF | - | >200 µM
Cc1cn([C@H]2C[C@H](N=[N+]=[N-])[C@@H](COP(=O)(O)OC[C@H]3OC(O)[C@@H](O)[C@@H](O)[C@@H]3O)O2)c(=O)[nH]c1=O | - | RT activity | CEM | EC50 | LAV-Bru | 15 d | <0.2 µM
Cc1nc(CCCCCCC(=O)c2ccccc2)n2nc(-n3nccn3)ccc12 | - | cytopathic effect | MT-4 | EC50 | RF | - | >260 µM
O=S(=O)(Nc1nnc2n1-c1ccccc1CC2)c1ccc(F)cc1S | - | cytopathic effect / XTT | CEM | EC50 | RF | - | >109.3 µM
COc1c2ccoc2nc2c(OC)cccc12 | - | p24 | H9 | EC50 | IIIB | - | <0.1 µg/mL
Nc1cccc(C[C@@H]2[C@H](O)[C@@H](O)[C@@H](Cc3cccc(N)c3)N(Cc3ccccc3)C(=O)N2Cc2ccccc2)c1 | - | hybridisation | MT-2 | EC50 | RF | - | <1.3 µM
Cc1cn([C@H]2C[C@H](N=[N+]=[N-])[C@@H](CO)O2)c(=O)[nH]c1=O | - | p24 | CEM | EC50 | BRU | - | 0.2 µM
Cc1nc(CCCCCCC(=O)c2ccccc2)n2nc(-n3ccnc3)ccc12 | - | - | MT-4 | EC50 | RF | - | 0.01 µM
Cc1cc(S(=O)(=O)Nc2nc(N)nc(N(C)C)n2)c(SCC(=O)O)cc1Cl | - | cytopathic effect / XTT | CEM | EC50 | RF | - | >200 µM
Cc1cn([C@H]2CC[C@@H](CO)O2)c(=O)[nH]c1=O | - | p24 | U-937 | EC50 | BRU | - | >100 µM
O=C1N(Cc2ccc(CO)cc2)[C@H](Cc2ccccc2)[C@H](O)[C@@H](O)[C@@H](Cc2ccccc2)N1Cc1ccc(CO)cc1 | - | plaque count / virus yield | MT-2 | EC50 | RF | - | <0.07 µg/mL
CC(C)(C)NC(=O)[C@@H]1C[C@@H]2CCCC[C@@H]2CN1C[C@H](O)[C@H](Cc1ccccc1)NC(=O)[C@H](CC(N)=O)NC(=O)c1ccc2ccccc2n1 | - | MTT | MT-2 | EC50 | LAI | - | 0.028 µM
CC(C)C[C@@H]1[C@H](O)[C@@H](O)[C@@H](CC(C)C)N(Cc2ccccc2)C(=O)N1Cc1ccccc1 | - | hybridisation | MT-2 | EC90 | RF | - | >10 µM
Cc1cn([C@H]2C[C@H](N=[N+]=[N-])[C@@H](CO)O2)c(=O)[nH]c1=O | - | RT activity | U-937 | EC50 | LAV-Bru | 7 d | <0.2 µM
O=C(CCCCCCc1ncc2ccc(Cl)nn12)c1ccccc1 | - | syncytia | C8166 | EC50 | RF | - | 0.21 µM
COc1c2ccoc2cc2oc(=O)ccc12 | - | p24 | H9 | EC50 | IIIB | - | 0.669 µg/mL
Cc1nc(CCCCCCC(=O)c2ccccc2)n2nc(-n3cncn3)ccc12 | - | cytopathic effect | MT-4 | EC50 | RF | - | 0.44 µM
Cc1cn([C@H]2C[C@H](N=[N+]=[N-])[C@@H](CO)O2)c(=O)[nH]c1=O | RT-A98G K103R | - | PBMC | EC50 | BCF06 | - | 0.03 µM
COc1c2c(nc3ccccc13)O[C@@H](C(C)(C)O)C2 | - | p24 | H9 | EC50 | IIIB | - | 1.34 µg/mL
Nc1ccn([C@H]2CC[C@@H](CO)O2)c(=O)n1 | RT-M184I | plaque count | HELA/CD4 + HELA CD4+ | EC50 | HXB2 | - | 0.4 µM
Cc1cc(C#N)cc(C)c1Oc1nc(Nc2ccc(C#N)cc2)nc(N)c1Br | - | luciferase | HEK293T | EC50 | MJ4 C (WT) | - | 0.0012 µM
O=C1N(Cc2ccccc2)[C@H](Cc2ccccc2O)[C@H](O)[C@@H](O)[C@@H](Cc2ccccc2O)N1Cc1ccccc1 | - | hybridisation | MT-2 | EC50 | RF | - | <6.5 µM
C/C(=C(/CCO)SS/C(CCO)=C(\C)N(C=O)Cc1cnc(C)nc1N)N(C=O)Cc1cnc(C)nc1N | - | p24 | U-937/HIV-1(RF) + U-937 | EC50 | RF | - | >125 µM
Cc1cn([C@H]2C[C@H](N=[N+]=[N-])[C@@H](CO)O2)c(=O)[nH]c1=O | - | cytopathic effect / MTT | MT-4 | EC50 | IIIB | - | 0.04 µM
Cc1cc(S(=O)(=O)Nc2nc(N)nc(N3CCCCC3)n2)c(S)cc1Cl | - | cytopathic effect / XTT | CEM | EC50 | RF | - | >200 µM
COc1cc2c[n+](C)c3c4cc5c(cc4c(CC(C)=O)cc3c2cc1OC)OCO5 | - | p24 | H9 | EC50 | IIIB | - | <0.1 µg/mL
Nc1ccn([C@H]2CC[C@@H](CO)O2)c(=O)n1 | - | - | PBMC | EC50 | LAI | - | 0.15 µM
Cc1cc(S(=O)(=O)Nc2n[nH]c(Nc3ccc(Cl)cc3)n2)c(S)cc1Cl | - | cytopathic effect / XTT | CEM | EC50 | RF | - | >200 µM
Cc1nc(CCCCCOCc2ccccc2)n2nc(Cl)ccc12 | - | p24 | C8166 | EC50 | RF | - | 0.38 µM
C[C@]1(/C=C/P(=O)(O)O)CO[C@@H](n2cnc3c(=O)[nH]c(N)nc32)C1 | - | - | PBMC | EC50 | LAI | - | 70 µM
CC(C)=CCN1Cc2cc(Cl)cc3[nH]c(=S)n(c23)C[C@@H]1C | RT-M41L T215Y L100I | - | MT-4 | EC95 | - | - | >3 µM
CCCCCCCCCCCCCCCCOP(=O)(OC[C@H]1OC(O)[C@H](O)[C@@H](O)[C@@H]1O)OC[C@H]1O[C@@H](n2cc(C)c(=O)[nH]c2=O)C[C@@H]1N=[N+]=[N-] | - | RT activity | CEM | EC50 | LAV-Bru | 26 d | >1 µM
Cc1ccc(Nc2nc(NS(=O)(=O)c3cc(C(=O)Nc4ccc(Cl)cc4)c(Cl)cc3S)n[nH]2)cc1 | - | cytopathic effect / XTT | CEM | EC50 | RF | - | >200 µM
CC1=C(C(=O)Nc2ccc(Cl)c(C(=O)OC(C)C)c2)SCCO1 | - | - | H9 | EC50 | RF | - | 1 µM
CC(C)C[C@@H]1[C@H](O)[C@@H](O)[C@@H](CC(C)C)N(Cc2ccc(CO)cc2)C(=O)N1Cc1ccc(CO)cc1 | - | hybridisation | MT-2 | EC90 | RF | - | >10 µM
C[C@]1(CCP(=O)(O)O)CO[C@@H](n2cnc3c(N)ncnc32)C1 | - | - | PBMC | EC90 | LAI | - | 80 µM
CC(C)(C)NC(=O)[C@@H]1C[C@@H]2CCCC[C@@H]2CN1C[C@@H](O)[C@H](Cc1ccccc1)NC(=O)[C@H](CC(N)=O)NC(=O)c1ccc2ccccc2n1 | PR-L10V K20C M36I L63T I64V A71V | - | PBMC | EC50 | BCF11 | - | 0.0225 µM
CO[C@H]1CCCC[C@@H](c2ccccc2)OC(=O)C(C)[C@@]2(O)OC([C@@H](C)[C@H](O)[C@H]2OC)[C@@H](C)/C=C/[C@H]1OC | - | luciferase | PBMC | EC50 | BaL | - | 1.59 µM
C[C@@H]1[C@H](O)[C@@H](O)[C@@H](C)N(Cc2ccccc2)C(=O)N1Cc1ccccc1 | - | hybridisation | MT-2 | EC90 | RF | - | >10 µM
Cc1nc(CCCCCCC(=O)c2ccccc2)n2nc(N)ccc12 | - | cytopathic effect | MT-4 | EC50 | RF | - | 0.89 µM
CC(C)CN(C[C@@H](O)[C@H](Cc1ccccc1)NC(=O)O[C@H]1CCOC1)S(=O)(=O)c1ccc(N)cc1 | - | p24 | PBMC | EC50 | - | clinical isolate, multidrug-resistant | 0.5 µM
CC(=O)Oc1cc(S(=O)(=O)Nc2n[nH]c(N)n2)c(S)cc1Cl | - | cytopathic effect / XTT | CEM | EC50 | RF | - | >200 µM
CSc1ccc2c(C)nc(CCCCCCC(=O)c3ccccc3)n2n1 | - | cytopathic effect | MT-4 | EC50 | RF | - | 0.63 µM
CO[P@](=O)(c1cc(C)cc(/C=C/C#N)c1)c1c(C(N)=O)[nH]c2ccc(Cl)cc12 | K103N | ELISA | MT-4 | EC50 | NL4-3 | - | 0.0015 µM
O=S(=O)(Nc1nnc2c3ccccc3ccn12)c1ccc(F)cc1S | - | cytopathic effect / XTT | CEM | EC50 | RF | - | 34.3 µM

Repeating the first 4 entries:

structure	mutations	method	cell line	read-out	strain or isolate	setting	result
CC(C)C[C@@H]1[C@H](O)[C@@H](O)[C@@H](CC(C)C)N(CC2CC2)C(=O)N1CC1CC1	-	hybridisation	MT-2	EC90	RF	-	>10 µM
Cc1cc(S(=O)(=O)Nc2n[nH]c(Nc3ccccc3)n2)c(SCC(=O)O)cc1Cl	-	cytopathic effect / XTT	CEM	EC50	RF	-	>200 µM
Cc1cn([C@H]2C[C@H](N=[N+]=[N-])[C@@H](COP(=O)(O)OC[C@H]3OC(O)[C@@H](O)[C@@H](O)[C@@H]3O)O2)c(=O)[nH]c1=O	-	RT activity	CEM	EC50	LAV-Bru	15 d	<0.2 µM
Cc1nc(CCCCCCC(=O)c2ccccc2)n2nc(-n3nccn3)ccc12	-	cytopathic effect	MT-4	EC50	RF	-	>260 µM